From PMC3112458, “Marked increase in etravirine and saquinavir plasma concentrations during atovaquone/proguanil prophylaxis” (Malaria Journal, 2011) come the findings set out here.

The data set in a line: 12 hour-PK of anti-retrovirals before and at day 20 of atovaquone/proguanil prophylaxis (HPLC-UV, plasma). In kind it is in vivo, human. How it is done: In September 2009, the patient planned to spend a two-week holiday in Kenya. […] Standard malaria prophylaxis with atovaquone/proguanil fixed-dose combination (250/100 mg) was prescribed: one tablet daily starting two days before the journey and ending the treatment seven days after return to Italy. A 12 hour-PK of anti-retrovirals was performed before starting prophylaxis with atovaquone/proguanil (Figure 1). The samples were collected in fasting status following this order: the first sample 12 hours after the last dose of anti-retrovirals (pre-dose); the second sample one hour after breakfast and anti-retrovirals consumption; the following samples at 2, 4, 6 and 12 hours post anti-retrovirals' intake. The second PK for the determination of anti-retrovirals' plasma concentrations during atovaquone/proguanil prophylaxis was collected at day 20 on prophylaxis with the same timing plan (Figure 1). In order to avoid any food interference with the PK results, the same diet was administered in both the PK sampling days.

With maraviroc, the “Tmax and Cmax in post-prophylaxis versus pre-prophylaxis” value (PK profiles, day 20 of atovaquone/proguanil prophylaxis) is “earlier”. Further, under “plasma, one HIV patient, day 20 of atovaquone/proguanil 250/100 mg daily vs before prophylaxis”, the “Δ AUC0-12h (during prophylaxis AUC minus pre-prophylaxis AUC)” value was -9%.
